The target in assay [1] is T1, HIV-1 IN in the presence of LEDGF/p75 (Human immunodeficiency virus type 1 group M subtype B, UniProt P04585).
T1 construct: Recombinant 6xHis tagged IN protein was expressed and purified as described previously; 6xHis; made in house; host or cells: Escherichia coli BL21 (DE3) for IN
Put plainly: HTRF LEDGF-dependent integrase assay. The assay is classed as biochemical. The note with it: concentration required to inhibit IN catalytic activities, by 50%. Here is the method: Recombinant 6xHis tagged IN protein was expressed and purified as described previously. Briefly, IN was expressed in Escherichia coli strain BL21 (DE3). Initial purification was done using a Ni-Sepharose column with an imidazole gradient from 20 mM to 500 mM concentration in a 50 mM HEPES (pH 7.5) buffer containing 1 M NaCl, 7.5 mM CHAPS, and 2 mM β-mercaptoethanol. This was followed by a heparin column purification with a NaCl gradient from 0 to 1 M concentrations. His-LEDGF was purified by loading precipitate of cell lysate onto a heparin column and was eluted with an increasing NaCl gradient (200 mM to 1 M) in a 50 mM HEPES (pH 7.5) buffer containing 7.5 mM CHAPS and 2 mM β-mercaptoethanol. Peak fractions were pooled and loaded onto a Superdex 200 GL column and eluted in a buffer containing 50 mM HEPES (pH 7.5), 200 mM NaCl, and 2 mM β-mercaptoethanol. […]
The HTRF assay allows measuring the inhibition of 3′-processing and strand-transfer IN reactions in the presence of recombinant LEDGF/p75 cellular cofactor [43]. […] After the incubation, 4 nM of Europium-Streptavidin were added to the reaction mixture, and the HTRF signal was recorded using a Perkin Elmer Victor 3 plate reader using a 314 nm for the excitation wavelength and 668 and 620 nm for the wavelength of the acceptor and the donor substrate emission, respectively.
A general note: TR-FRET usually uses a lanthanide donor and a delayed reading to cut background.

Assay [2] addresses T2, HIV-1 RT-associated RNase H activity (Human immunodeficiency virus type 1 group M subtype B, UniProt P04585).
T2 construct: The 1:1 ration between the p66/p51 subunits was also verified; made in house; host or cells: E. coli strain M15 with the p6HRT-prot vector
Put plainly: RNase H polymerase-independent cleavage assay. The assay is classed as biochemical. The note with it: compound concentration required to inhibit the HIV-1 RNase H activity by 50%. Here is the method: HIV-1 RT group M subtype B. Heterodimeric RT was expressed and purified essentially as previously described. Briefly, protein was expressed in E. coli strain M15 containing the p6HRT-prot vector, induced with 1.7 mM isopropyl β-D-1-thiogalactopyranoside for 4 h. Protein purification was carried out with a BioLogic LP system (Biorad), using a combination of immobilized metal affinity and ion exchange chromatography. […] Catalytic activities and protein concentrations were determined. […]
HIV RT-associated RNase H activity was measured as described (using the RNase H inhibitor RDS175911 as a control.) In a 100 µL reaction volume containing 50 mM Tris-HCl buffer with pH 7.8, 6 mM MgCl2, 1 mM dithiothreitol (DTT), 80 mM KCl, 0.25 µM hybrid RNA/DNA 5′-[…]-Fluorescin-3′ (HPLC, dry, QC: Mass Check) (available from Metabion (Planegg, Germany)) 5′-Dabcyl-[…]-3′ (HPLC, dry, QC: Mass Check), there were increasing concentrations of an inhibitor, whose dilution was made in water, and 20 ng of wt RT, according to a linear range of dose-response curve. The reaction mixture was incubated for 1 h at 37 °C, stopped by the addition of EDTA, and products were measured with a multilabel counter plate reader Victor 3 (Perkin Elmer model 1420-051 (Waltham, MA, USA)) equipped with filters for 490/528 nm (excitation/emission wavelength).

The record followed here is publication PMC8398805, “Chemical Characterization and Anti-HIV-1 Activity Assessment of Iridoids and Flavonols from Scrophularia trifoliata” (Molecules, 2021).

Usually IC50 stands for the concentration at which inhibition is half-maximal. Regarding kaempferol-3-O-rutinoside [Compound 10], the IC50 in assay [1] was 1760 ± 17 nM; in assay [2] it was greater than 100000 nM.
